Measured values as given in patent US9415070B2, “Methods and compositions for localized delivery of agents to virally infected cells and tissues” (Massachusetts Institute of Technology, priority 2012, dated 2016).

Test system: infected target cells
Assay: in vitro eradication assay, HIV-specific T cells co-cultured with infected target cells
Assay type: cell-based
Settings: in the presence of the latency reversing drug; FIG. 4
Source text: The in vitro cell eradication assay presented in this Example was directed to determining if T pharmacytes can induce expression of HIV expression in latently infected cells and kill those cells. HIV-specific T cells and Cytomegalovirus (CMV)-specific T cells were co-cultured with infected target cells (and mock-infected target cells) without the addition of any exogenous cytokines.

IL-2: cytokine used as latency reversing drug
response of HIV-specific T cells to infected target cells: specifically respond to these infected target cells only in the presence of latency reversing drugs
